Reference: patent US20070073039A1, “Peptides that inhibit viral infections” (priority 2005, published 2007)

Tested on: Dengue-2
Test: Dengue-2 infection of Vero cells, Intracellular FACS Assay
Format: cell-based
Conditions: 20 μM; Vero cells 3 days post-infection
Method: Intracellular FACS Assay: Vero cells were seeded for 24 h pre-infection in 6-well plates. Cells were exposed to Dengue-2 in the presence of increasing concentrations of peptide (or DMSO as control). Viruses and peptide were washed away 2 h post-infection. Cells were taken for intracellular staining 3 days post-infection. Cells were stained with appropriate isotype control, Dengue Env, Dengue capsid or tubulin antibodies. Cells were analyzed by FACS.

Sequence: SWLRDIWDWI [^C-10mer]
- % GATED, α-Tubulin: 97.30%
